PubChem BioAssay AID624099 | ICCB-Longwood | 2012

Test: 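Host factors E2 relies on to silence an HPV18 LCR reporter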 (primary screen)
System: human C33A cervical carcinoma cells (HPV-negative) stably expressing BPV1 E2 and an HPV18 LCR luciferase reporter
Knock-down reagent: siRNA pool against human genes, 40 nM
Time to read-out: 72 h
Read-out: 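Per-well luciferase luminescence, z-scored on each plate against the plate mean and SD with control wells left out, then averaged across three replicate plates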
Reading the numbers: mean z-score and z-score: higher = stronger reporter signal, weaker E2 silencing
Call rule: 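Hit if mean z-score reaches 2 and two or more of three replicate z-scores also reach 2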
The deposit covers about 21,000 reagents; this is a random part of them. 497 of all reagents (2.4%) count as active. 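Higher z means weaker E2 silencing; only reporter increases were scored, and knock-downs that hurt cell survival may mask genuine repressor factors.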

gene,mean z-score,"z-score, replicate A","z-score, replicate B","z-score, replicate C",call
FAM174A,-0.36,0.02,-0.57,-0.54,inactive
H2AC21,0.18,-0.04,0.08,0.5,inactive
RTL3,1.51,2.02,1.3,1.2,inactive
HOXA5,0.14,0.21,0.35,-0.12,inactive
PSMB6,-0.21,-0.02,-0.38,-0.22,inactive
BTC,-0.08,-0.09,0.04,-0.18,inactive
TBCEL,-0.09,-0.19,-0.16,0.07,inactive
ESX1,0.75,0.75,0.73,0.78,inactive
CD37,1.04,1.06,1.1,0.96,inactive
INSL5,1.19,0.78,1.22,1.55,inactive
CXADR,0.57,0.56,1,0.16,inactive
ZNF34,0.27,0.11,0.17,0.52,inactive
HEMK2,-0.19,0.04,-0.38,-0.23,inactive
SASS6,2.42,2.91,2.53,1.82,active
SLC13A5,-0.35,-0.56,-0.27,-0.2,inactive
SHC2,-0.42,-0.67,-0.47,-0.14,inactive
CIDEA,-0.04,-0.09,0.05,-0.07,inactive
CELF1,1.74,1.68,1.37,2.18,inactive
GAREM2,0.6,0.33,0.68,0.79,inactive
CAGE1,1.3,1.13,1.25,1.53,inactive
LINC00698,0.02,-0.06,-0.04,0.15,inactive
FGF14,1.09,0.99,1.26,1.02,inactive
KRT34,1.6,1.96,1.44,1.39,inactive

Records listed above marked active:
gene,mean z-score,"z-score, replicate A","z-score, replicate B","z-score, replicate C",call
SASS6,2.42,2.91,2.53,1.82,active
